Results on three molecules are retold here after patent publication US20010014534A1, “Stripper composition and stripping method” (NEC Corporation, priority 2000, published 2001).

The subject of the series is liquid culture medium containing a particular microorganism. In words: Biodegradability according to the OECD method. The settings on record: decomposition percent of test compound after 28 days, stored at 25° C.
In the case of `NC(N)=O` [Urea], the Biodegradability entry is recorded as “⊚ (Biodegradability is 80% or more.)”. For `O=C(O)c1cc(O)c(O)c(O)c1` [Gallic acid] the value was “◯ (Biodegradability is 30% to less than 80%.)”; for `Oc1cccc(O)c1O` [Pyrogallol], “◯ (Biodegradability is 30% to less than 80%.)”.
